Anti-infective test results gathered from many reports (values: NIAID ChemDB through PubChem).

Shared fields: whole-cell or culture tests

Fold resistance has wild type as its base. Rows are shuffled and stem from different studies. Percent inhibition refers to the dose given; in toxicity tests it is the harm to the cells. An empty or dashed field is not shown. a–b is a range or a potency band. ECn is the concentration giving n% inhibition of infection, replication or growth.

smiles	tested at	cell line	strain	read-out	changes	species	method	result
CCOC(=O)CC1COP(=O)(CO[C@H](C)Cn2cnc3c(NC(=O)c4ccccc4)ncnc32)OC1	1 µM	PHH	Genotype D	inhibition		Hepatitis B virus	PCR	≤30%
CC(C)(CO)C(=O)SCCOP(=O)(NCc1ccccc1)OC[C@H]1O[C@@H](n2cnc3c(=O)[nH]c(N)nc32)[C@](C)(O)[C@@H]1O		Replicon cells	GT1b	fold resistance	L31F	Hepatitis C virus	replicon	0.88
CCC(CCC(C)C1CCC2C3C[C@@H](O)[C@@]4(O)C[C@@H](O)CCC4(C)C3CCC12C)C(C)C	6.25 µg/mL	HepG2 2.2.15		inhibition		Hepatitis B virus	antigen	3.27%
Clc1ccc(Cn2c(CN3CCCC3)nc3ccccc32)cc1	5 µM	Huh7	1b Con1	inhibition		Hepatitis C virus	luciferase / replicon	37.46%
COC(=O)N[C@H](C(=O)N1CCC[C@H]1c1ncc(-c2ccc(-c3ccc(-c4cnc([C@@H]5CCCN5C(=O)[C@@H](NC(=O)OC)C(C)C)[nH]4)cc3)cc2)[nH]1)C(C)C		Huh7.5	SA13	EC50		Hepatitis C virus	antigen	0.00009 µM
CCOC(=O)CC1COP(=O)(CO[C@H](C)Cn2cnc3c(N(C(C)=O)C(C)=O)ncnc32)OC1	1 µM	HepaRG	Genotype D	inhibition		Hepatitis B virus	PCR	50–80%
C[C@@]1(O)[C@H](O)[C@@H](CO)O[C@H]1c1coc2c(N)ncnc12	2 µg/mL	HepG2-T5B		inhibition		Hepatitis C virus	MTT	6.15%
COC(=O)CC1COP(=O)(CO[C@H](C)Cn2cnc3c(N)ncnc32)OC1	1 µM	HepaRG	Genotype D	inhibition		Hepatitis B virus	PCR	≤30%
CC(C)(C)OC(=O)N[C@@H]1CCCCC/C=C\[C@@H]2C[C@@]2(C(=O)NS(=O)(=O)C2CC2)NC(=O)[C@@H]2C[C@@H](OC(=O)N3Cc4cccc(F)c4C3)CN2C1=O		Huh7.5	SA13	EC50		Hepatitis C virus	antigen	0.03 µM
CC1COP(=O)(CO[C@H](C)Cn2cnc3c(N)ncnc32)OC1	1 µM	HepaRG	Genotype D	inhibition		Hepatitis B virus	PCR	>80%
C=CC(=O)NCC(=O)N1C[C@H](Oc2nccc3ccc(Br)cc23)C[C@H]1C(=O)N[C@]1(C(=O)NS(=O)(=O)C2CC2)C[C@H]1C=C			1b D168V	EC50		Hepatitis C virus	luciferase	>3 µM
COC(=O)N[C@H](C(=O)N1CCC[C@H]1c1ncc(-c2ccc(-c3ccc(-c4cnc([C@@H]5CCCN5C(=O)[C@@H](NC(=O)OC)C(C)C)[nH]4)cc3)cc2)[nH]1)C(C)C		1C	Con1	fold resistance	L31V	Hepatitis C virus	luciferase	17
C[C@@]1(O)[C@H](O)[C@@H](CO)O[C@H]1c1c[nH]c2c(N)ncnc12	10 µg/mL	HepG2-5B		inhibition		Hepatitis C virus	MTT	0%
Nc1ncnc2c1ncn2CCOCP(=O)(O)O	1 µM	PHH	Genotype D	inhibition		Hepatitis B virus	PCR	50–80%
CC(C)OC(=O)[C@H](C)N[P@](=O)(OC[C@H]1O[C@@](C#N)(c2ccc3c(N)ncnn23)[C@](C)(O)[C@@H]1OC(=O)C(C)C)Oc1ccccc1		1C	1b Con1	fold resistance	A156T	Hepatitis C virus	luciferase	0.36

A second listing of 2 rows from above:

smiles | tested at | cell line | strain | read-out | changes | species | method | result
CC(C)(CO)C(=O)SCCOP(=O)(NCc1ccccc1)OC[C@H]1O[C@@H](n2cnc3c(=O)[nH]c(N)nc32)[C@](C)(O)[C@@H]1O |  | Replicon cells | GT1b | fold resistance | L31F | Hepatitis C virus | replicon | 0.88
Nc1ncnc2c1ncn2CCOCP(=O)(O)O | 1 µM | PHH | Genotype D | inhibition |  | Hepatitis B virus | PCR | 50–80%